Results taken from patent publication US8835147B2, “Cellular production of glucaric acid through recombinant expression of uronate dehydrogenase and myo-inositol oxygenase” (Massachusetts Institute of Technology, priority 2008, dated 2014).

Assay: Effect of pH on activity of purified Udhs
Assay type: biochemical
Settings: purified Udh, FIG. 10a

B1: P. syringae Udh: 6×-His tagged uronate dehydrogenase from P. syringae pv. tomato DC3000 (SEQ ID NO:2), expressed in E. coli and purified (protein, listed as Pseudomonas syringae)
chain: MASAHTTQTPFNRLLLTGAAGGLGKVLRETLRPYSHILRLSDIAEMAPAVGDHEEVQVCDLADKDAVHRLVEGVDAILHFGGVSVERPFEEILGANICGVFHIYEAARRHGVKRVIFASSNHVIGFYKQNETIDAHSPRRPDSYYGLSKSYGEDMASFYFDRYGIETVSIRIGSSFPEPQNRRMMSTWLSFDDLTRLLERALYTPDVGHTVVYGVSDNKTVWWDNRFASKLDYAPKDSSEVFRAKVDAQPMPADDDPAMVYQGGAFVASGPFGDK
modifications: 6xHis tag
pH optimum: 8.0

B2: A. tumefaciens Udh: 6×-His tagged uronate dehydrogenase from A. tumefaciens str. C58 (SEQ ID NO:24), expressed in E. coli and purified (protein, listed as Agrobacterium tumefaciens)
chain: MKRLLVTGAAGQLGRVMRERLAPMAEILRLADLSPLDPAGPNEECVQCDLADANAVNAMVAGCDGIVHLGGISVEKPFEQILQGNIIGLYNLYEAARAHGQPRIVFASSNHTIGYYPQTERLGPDVPARPDGLYGVSKCFGENLARMYFDKFGQETALVRIGSCTPEPNNYRMLSTWFSHDDFVSLIEAVFRAPVLGCPVVWGASANDAGWWDNSHLGFLGWKPKDNAEAFRRHITETTPPPDPNDALVRFQGGTFVDNPIFKQS
modifications: 6xHis tag
pH optimum: 8.0
